Results of unrelated studies side by side (data: NIAID ChemDB).

Shared fields: host cell toxicity; read-out: CC50

CCn: concentration that lowers growth or viability of the cells by n%. Lines come from different laboratories, so protocols vary. An empty or dashed field is not shown.

| smiles | cells | method | value |
|---|---|---|---|
| CC(C)(C)S(=O)(=O)C[C@@H](Cc1cccc2ccccc12)C(=O)NCCC(=O)N[C@@H](Cc1ccccc1)[C@@H](O)[C@H](O)[C@H](Cc1ccccc1)NC(=O)CCNC(=O)[C@H](Cc1cccc2ccccc12)CS(=O)(=O)C(C)(C)C | PBLC | - | >10 µM |
| O=[N+]([O-])c1c(N2CC[N+]3(CC2)CC[N+]2(CCNCC2)CC3)ncnc1N1CC[N+]2(CC1)CC[N+]1(CCN(c3ncnc(N4CC[N+]5(CC4)CC[N+]4(CCNCC4)CC5)c3[N+](=O)[O-])CC1)CC2 | GMK | - | >365.2 µg/mL |
| CCOC(=O)C1=C(CN2CC(F)(F)[C@@H]3[C@H]2CON3CC[C@](C)(O)C(=O)O)NC(c2nccs2)=N[C@H]1c1ccc(F)c(F)c1C | HepG2.2.15 | WST / absorbance | >100 µM |
| Cc1cc(=O)oc2cc(OCc3cn(Cc4cc(=O)oc5ccc(Cl)cc45)nn3)ccc12 | HBL100 | MTT | 36.91 µg/mL |
| Nc1c(N2CC[N+]3(CC2)CC[N+]2(CCN(c4nc[nH]c(=O)c4N)CC2)CC3)nc[nH]c1=O | K562 | - | >82.4 µg/mL |
| COC(=O)CCCC1=NCCc2cc(OC)c(OC)cc21 | HEK 293 | - | <7.5 µM |
| Nc1cc(OC[C@H]2CC[C@@H](COCc3ccccc3)O2)ncn1 | CAKI-1 | - | 127 µM |
| CCCC[C@@H](CN[C@@H](CN)CCCCNC)NCc1cccc2ccccc12 | J774 | fluorescence | 36.49 µM |
| Nc1cc(OC[C@H]2CC[C@@H](CO)O2)ncn1 | PC-3 | - | >250 µM |
| CCCc1cc(=O)oc2c3c(c4c(c12)OC(C)(C)C=C4)O[C@H](C)[C@H](C)C3=O | CV-1 | - | 10 µg/mL |
| CC(C)[C@H](NC(=O)[C@H](Cc1cccc2ccccc12)CS(=O)(=O)C(C)(C)C)C(=O)N[C@@H](Cc1ccc2c(c1)OCO2)[C@@H](O)[C@H](O)[C@H](Cc1ccc2c(c1)OCO2)NC(=O)[C@@H](NC(=O)[C@H](Cc1cccc2ccccc12)CS(=O)(=O)C(C)(C)C)C(C)C | PBLC | - | >0.02 µM |
| CNCCC[C@@H](CN[C@H](CN)Cc1cccc2ccccc12)NCCc1cccc2ccccc12 | J774 | fluorescence | 40.39 µM |
| CCOC(=O)C1=C(CN2CC(F)(F)[C@H]3[C@@H]2CCN3CC[C@@](C)(O)C(=O)O)NC(c2nccs2)=N[C@H]1c1ccc(F)c(F)c1F | HepG2.2.15 | WST / absorbance | 39.7 µM |
| COc1cnc(-c2cnccn2)c2[nH]cc(C(=O)C(=O)N3CCN(C(=O)c4ccccn4)CC3)c12 | HeLa | trypan blue | >100 µM |
| Cc1cc(=O)oc2cc(OCc3cn(Cc4cc(=O)oc5cc(Cl)ccc45)nn3)ccc12 | V79 | MTT | 61.88 µg/mL |
| CSc1nsc(-c2ccc(OCCCCOc3ccccc3)cc2)c1C#N | HELA-OHIO | - | >50 µM |
| CCn1c2c(c(=O)c3cc(C(C)C)ccc31)Cc1c(C)csc1-2 | HELA-OHIO | MTT | >5 µg/mL |
| CCCc1cc(=O)oc2cc(O)c3c(c12)OC(C)(C)C=C3 | CV-1 | - | 3 µg/mL |
| Nc1nc(N)nc(OC[C@H]2CC[C@@H](CO)O2)n1 | L1210 | - | >250 µM |
| O=c1oc2ccccc2cc1CNc1cc([N+](=O)[O-])cc([N+](=O)[O-])c1 | Ava5 | MTS | 173 µM |
| C1C[N+]2(CCN1)CC[N+]1(CCNCC1)CC2 | K562 | - | >672.7 µg/mL |
| CCCc1cc(=O)oc2c(C(=O)CC)c(O)cc(O)c12 | CV-1 | - | 10 µg/mL |
| C=CCCC1=NCC(O[Si](C)(C)C(C)(C)C)c2cc(OC)c(OC)cc21 | BJ | - | <7.5 µM |
| CCOC(=O)C1=C(CN2CC(F)(F)[C@H]3[C@@H]2CON3C[C@H](O)C(C)(C)C(=O)O)NC(c2nc(C)cs2)=N[C@H]1c1cccc(F)c1C | HepG2.2.15 | WST / absorbance | 21.7 µM |
| Clc1ccc([C@@H](CCn2ccnc2)Oc2ccccc2Cl)cc1 | Human histiocytic lymphoma U937 cells | - | 327 µM |
| COc1cnc(-n2cc(C)nn2)c2[nH]cc(C(=O)C(=O)N3CCN(C(=O)c4ccccc4)CC3)c12 | HeLa | trypan blue | >100 µM |
| O=[N+]([O-])c1c(N2CC[N+]3(CC2)CC[N+]2(CCNCC2)CC3)ncnc1N1CC[N+]2(CC1)CC[N+]1(CCNCC1)CC2 | GMK | - | >581 µg/mL |
| CC(C)[C@H](NC(=O)[C@H](Cc1ccccc1)NS(C)(=O)=O)C(=O)N[C@@H](Cc1ccccc1)[C@@H](O)[C@H](O)[C@H](Cc1ccccc1)NC(=O)[C@@H](NC(=O)[C@H](Cc1ccccc1)NS(C)(=O)=O)C(C)C | PBLC | - | >0.5 µM |
| CCOC(=O)C1=C(CN2CC(F)(F)[C@H]3[C@@H]2CCN3CC[C@](C)(O)C(=O)O)NC(c2nccs2)=N[C@H]1c1cccc(F)c1C | HepG2.2.15 | WST / absorbance | >100 µM |
| COc1cnc(-n2cnc(C)n2)c2[nH]cc(C(=O)C(=O)N3CCN(C(=O)c4ccccc4)[C@@H](C)C3)c12 | HeLa | trypan blue | >100 µM |
| CCCCCCCCCc1ccc(OCCOCCOCCOCCOCCOCCOCCOCCOCCO)cc1 | P4-CCR5 | MTT | 70 µg/mL |
| Nc1nc(OC[C@H]2CC[C@@H](COCc3ccccc3)O2)cc(OC[C@@H]2CC[C@H](COCc3ccccc3)O2)n1 | L1210 | - | 25 µM |
| CCn1c(-c2cccc(OC)c2)c(C)c(=O)c2cc(C(C)C)ccc21 | HeLa S3 | MTT | >8 µg/mL |
| Nc1nc(OC[C@H]2CC[C@@H](CO)O2)c2[nH]cnc2n1 | PC-3 | - | >250 µM |
| CSc1nsc(-c2ccc(OCCOc3ccc(C#N)cc3)cc2)c1C#N | HELA-OHIO | - | 2 µM |
| COc1cnc(-c2ccn[nH]2)c2[nH]cc(C(=O)C(=O)N3CCN(C(=O)c4ccccc4)CC3)c12 | HeLa | trypan blue | ≤100 µM |
| Cc1nc(N2CCCC2)c([N+](=O)[O-])c(N2CC[N+]3(CC2)CC[N+]2(CCN(c4nc(C)nc(N5CCCC5)c4[N+](=O)[O-])CC2)CC3)n1 | K562 | - | >281.8 µg/mL |
| CSc1nsc(-c2ccc(OCCOc3ccc([N+](=O)[O-])cc3)cc2)c1C#N | HELA-OHIO | - | 2 µM |
| COc1cc(NCc2cc3ccccc3oc2=O)cc(OC)c1OC | Ava5 | MTS | 120 µM |
| NN1CC[N+]2(CC1)CC[N+]1(CCN(N)CC1)CC2 | GMK | - | 207.1 µg/mL |
| CC(C)c1ccc2c(c1)c(=O)cc(-c1ccco1)n2C | HELA-OHIO | MTT | >20 µg/mL |
| Nc1cc(OCC2O[C@H](COCc3ccccc3)[C@@H](OCc3ccccc3)[C@H]2OCc2ccccc2)nc(N)n1 | CAKI-1 | - | 22 µM |
| CC(C)(C)S(=O)(=O)C[C@@H](Cc1cccc2ccccc12)C(=O)N[C@H](C(=O)N[C@@H](Cc1ccccc1)[C@@H](O)[C@H](O)[C@H](Cc1ccccc1)NC(=O)[C@@H](NC(=O)[C@H](Cc1cccc2ccccc12)CS(=O)(=O)C(C)(C)C)C1CCCC1)C1CCCC1 | PBLC | - | >0.007 µM |
| CC(C)COc1cccc(-c2ccc(C(=O)N(Cc3cccc(OCCCCCC(=O)OC(=O)O)c3)C(C)C)cc2)c1 | RAJI | - | >20 µM |
| CCCc1cc(=O)oc2cc(OC(=O)C(C)(C)C)cc(OC(=O)C(C)(C)C)c12 | CV-1 | - | 12 µg/mL |
| COc1cc(OC[C@H]2CC[C@@H](CO)O2)nc(N)n1 | CAKI-1 | - | 240 µM |
| Cn1ncnc1-c1ncc(F)c2c(C(=O)C(=O)N3CCN(C(=O)c4ccccc4)CC3)c[nH]c12 | HeLa | trypan blue | >100 µM |
| CSc1nsc(-c2ccc(OCCCCOc3ccc([N+](=O)[O-])cc3)cc2)c1C#N | HELA-OHIO | - | 0.5 µM |
| Nc1cc(OC[C@@H]2O[C@H](CO)[C@@H](O)[C@H]2O)nc(N)n1 | L1210 | - | 175 µM |
| CCn1c(-c2ccccc2)c(C)c(=O)c2c(C)c(OCC(C)C)ccc21 | HeLa S3 | MTT | >5 µg/mL |
| O=c1oc2ccccc2cc1CNc1ccc(Br)cc1Cl | Ava5 | MTS | 152 µM |
| CCn1c(-c2ccccc2)c(C)c(=O)c2cc(OCC(C)C)c(C)cc21 | HeLa S3 | MTT | >4 µg/mL |
| Nc1ccn(C[C@@H](CO)OCP(=O)(O)O)c(=O)n1 | HELF | - | 72 µM |
| CCn1c(-c2cccc(C)c2)c(C)c(=O)c2c(Cl)c(OCC(C)C)ccc21 | HELA-OHIO | MTT | >2.5 µg/mL |
| CCOC(=O)COc1ccc(CO)cc1 | BJ | - | >20 µM |
| Cc1c(-c2ccccc2)n(-c2ccc(Cl)cc2)c2ccc(C(C)C)cc2c1=O | HELA-OHIO | MTT | >1 µg/mL |
| CCCc1cc(=O)oc2cc(OC(=O)CC)c3c(c12)OC(C)(C)C=C3 | CV-1 | neutral red | 10 µg/mL |
| O=c1oc2ccccc2cc1CNc1cccc(O)c1 | Ava5 | MTS | 200 µM |
| CCn1c(-c2ccco2)cc(=O)c2cc(C(C)C)ccc21 | HELA-OHIO | MTT | 19 µg/mL |

Repeating the final 7 entries:

smiles | cells | method | value
Nc1ccn(C[C@@H](CO)OCP(=O)(O)O)c(=O)n1 | HELF | - | 72 µM
CCn1c(-c2cccc(C)c2)c(C)c(=O)c2c(Cl)c(OCC(C)C)ccc21 | HELA-OHIO | MTT | >2.5 µg/mL
CCOC(=O)COc1ccc(CO)cc1 | BJ | - | >20 µM
Cc1c(-c2ccccc2)n(-c2ccc(Cl)cc2)c2ccc(C(C)C)cc2c1=O | HELA-OHIO | MTT | >1 µg/mL
CCCc1cc(=O)oc2cc(OC(=O)CC)c3c(c12)OC(C)(C)C=C3 | CV-1 | neutral red | 10 µg/mL
O=c1oc2ccccc2cc1CNc1cccc(O)c1 | Ava5 | MTS | 200 µM
CCn1c(-c2ccco2)cc(=O)c2cc(C(C)C)ccc21 | HELA-OHIO | MTT | 19 µg/mL